Measured values from several laboratories, pooled; numbers as filed in NIAID ChemDB.

Shared fields: cytotoxicity tests; cells: WI-38; measure: CC50

CCn: concentration that lowers growth or viability of the cells by n%. a–b is a range or a potency band. Conditions beyond the fields shown may differ between rows. Blank or dashed fields: not listed here.

structure | read by | result
C=CCc1ncn2c(=O)[nH]c(NC(C)=O)nc12 |  | 400 µg/mL
CCCCCCCCN=C(N)c1ccc(N2CCN(c3ccc(C(N)=NCCCCCCCC)cc3)CC2)cc1 |  | 2 µg/mL
Nc1nc2c(ncn2C[C@@H]2CC[C@H](P(=O)(O)O)O2)c(=O)[nH]1 |  | 10–50 µg/mL
CCCCCCCCCN=C(N)c1ccc(N2CCN(c3ccc(C(N)=NCCCCCCCCC)cc3)CC2)cc1 |  | 2.52 µg/mL
O=C1CC(CO)=NN1c1ccccc1 |  | 388 µM
C=CCc1nc(C)n2c(=O)[nH]cnc12 |  | 200 µg/mL
COc1ccc2nc3n[nH]c(C)c3c(Cl)c2c1 |  | >100 µg/mL
CC(C)CCN=C(N)c1ccc(N2CCN(c3ccc(C(N)=NCCC(C)C)cc3)CC2)cc1 |  | >0.9 µg/mL
Nc1nc2c(ncn2C[C@H]2CC[C@H](P(=O)(O)O)O2)c(=O)[nH]1 |  | >100 µg/mL
CCCCCCCN=C(N)c1ccc(N2CCN(c3ccc(C(N)=NCCCCCCC)cc3)CC2)cc1 |  | >3.4 µg/mL
Nc1nc2c(ncn2C[C@@H]2CC[C@@H](P(=O)(O)O)O2)c(=O)[nH]1 |  | 10–100 µg/mL
CC[C@H](C)C(=O)c1c(O)cc(O)cc1OC/C=C(\C)CCC=C(C)C | sulforhodamine | 8.9 µM
C=CCc1nc(C)n2c(=O)[nH]c(NC(C)=O)nc12 |  | 400 µg/mL
O=c1[nH]c(=O)n([C@@H]2O[C@H](CO)[C@@H](O)[C@@H]2O)cc1/C=C/Br |  | >75 µM

Again, the opening 2 rows:

structure	read by	result
C=CCc1ncn2c(=O)[nH]c(NC(C)=O)nc12		400 µg/mL
CCCCCCCCN=C(N)c1ccc(N2CCN(c3ccc(C(N)=NCCCCCCCC)cc3)CC2)cc1		2 µg/mL